Reference: patent publication US20030194411A1

Legend:
Experiment in all cases: ELISA, peptide coat 5000 ng/ml
[1] = target: peptide 284 …
[2] = target: peptide 282 (GPGRAF)3C, …
[3] = target: peptide 285 …

Negative control serum of Table 10
OD [1]: 0.025 and 0.021 | OD [2]: 0.02 and 0.035 | OD [3]: 0.033

Values joined by “and” are separate entries in the source; they are usually repeats but may differ in a detail not shown here. Equal entries are not always repeated.
